Data set [1] relates to NC(=O)c1ccc[n+]([C@@H]2O[C@H](COP(=O)(O)OP(=O)(O)OC[C@H]3O[C@@H](n4cnc5c(N)ncnc54)[C@H](O)[C@@H]3O)[C@@H](O)[C@H]2O)c1. Kind of data set: purified protein. The conditions noted are these: pH 7.4; 30.0 °C; varied: cofactor.
The subject of data set [2] is NC(=O)c1ccc[n+]([C@@H]2O[C@H](COP(=O)(O)OP(=O)(O)OC[C@H]3O[C@@H](n4cnc5c(N)ncnc54)[C@H](OP(=O)(O)O)[C@@H]3O)[C@@H](O)[C@H]2O)c1. Kind of data set: purified protein. The note with it: pH 7.4; 30.0 °C; varied: cofactor.

Consider “MEZ (Mtb malic enzyme) (Mycobacterium tuberculosis H37Rv)”, for which the K0.5 stood at 0.5 ± 0.03 mM in data set [1] and 1.4 ± 0.02 mM in data set [2].
